Measured values from several laboratories, pooled; numbers as filed in NIAID ChemDB.

All rows: growth or infection tests; species: Candida albicans; read by: agar diffusion / agar; measure: zone

Blank or dashed fields: not listed here. Conditions beyond the fields shown may differ between rows. Zone: diameter of growth inhibition. Two numbers with a dash give a range or band.

structure | tested at | strain | result
CCN1C(=S)N(CN2CCN(c3ccccn3)CC2)NC1C12CC3CC(CC(C3)C1)C2 | 200 µg/disc | IFO 0583 | <10 mm
COc1ccc(C=NNC(=O)c2snnc2C(F)(F)F)cc1 | 100 µg/mL | MTCC 227 | 0 mm
N#CC1=C(c2ccccc2)C(C#N)C(=O)C2=C1N=C/C(=C\c1sc(=O)[nH]c1O)C(c1ccccc1O)=N2 | 100 µg/mL | fungal strain | 14 mm
NS(=O)(=O)c1ccc(-n2nc(-c3ccc(Cl)cc3)c3c(C(F)(F)F)cc(-c4ccc(Br)cc4)nc32)cc1 | 4000 µg/mL | MTCC 227 | 0 mm
O=C(NN=Cc1ccco1)c1snnc1C(F)(F)F | 100 µg/mL | MTCC 227 | 0 mm
NC(=S)N/N=C/c1ccccc1O | 2 mg/mL |  | 12 mm
CCN1C(=S)N(CN2CCN(Cc3ccccc3)CC2)NC1C12CC3CC(CC(C3)C1)C2 | 200 µg/disc | IFO 0583 | <10 mm
Cc1ccc(-n2cc(-c3ccc([N+](=O)[O-])cc3)c(-c3ccn[nH]3)n2)cc1 | 5 mg/mL |  | 10 mm
COc1ccc(C2=CC(c3cc(OC)c(OC)c(OC)c3)NC(=S)N2)cc1OC | 1 mg/mL | DSM 70014 | 14 mm
NS(=O)(=O)c1ccc(-n2nc(-c3ccc(Cl)cc3)c3c(C(F)(F)F)cc(-c4ccccc4)nc32)cc1 | 4000 µg/mL | MTCC 227 | 0 mm
CC(C)=NNC(=O)c1snnc1C(F)(F)F | 150 µg/mL | MTCC 227 | 0 mm
COc1ccc(C2c3ccc4ccccc4c3Oc3nc(-c4cc5ccccc5oc4=O)[nH]c(=O)c32)cc1OC | 150 µg/mL |  | 18 mm
C=C[C@]1(C)CC[C@H](O)[C@@](C)(CCC=C(C)C)O1 | 20000 µg/mL |  | 10.86 mm
C[C@H]1[C@H](O)[C@@H](C)/C=C/C=C/C=C/C=C/C=C/C=C/C=C/[C@H](O[C@@H]2O[C@H](C)[C@@H](O)[C@H](N)[C@@H]2O)C[C@@H]2O[C@](O)(C[C@@H](O)C[C@@H](O)CC[C@H](O)[C@@H](O)C[C@@H](O)CC(=O)O[C@H]1C)C[C@H](O)[C@H]2C(=O)O | 1000 µg/mL |  | 17 mm
COC(=O)N[C@H](C(=O)NN(CC[C@]1(Cc2ccccc2)C(=O)N(C2c3ccccc3C[C@H]2O)C[C@H]1O)Cc1ccc(Br)cc1)C(C)(C)C | 10 mg/mL |  | 12.8 mm
NC(=S)c1ccc(OC(=O)CN2CCOCC2)cc1 | 100 µg/mL | ATCC 10231 | 20 mm
Cc1ccc(-n2cc(-c3ccc([N+](=O)[O-])cc3)c(-c3ccon3)n2)cc1 | 5 mg/mL |  | 9 mm
O=C(NN=C1CCCC1)c1snnc1C(F)(F)F | 100 µg/mL | MTCC 227 | 0 mm
O=C1NC(=O)/C(=C/c2cnc(=S)[nH]c2-c2ccccc2O)S1 | 100 µg/mL | fungal strain | 11 mm
NS(=O)(=O)c1ccc(-n2nc(-c3ccc(Cl)cc3)c3c(C(F)(F)F)cc(-c4ccc(-c5ccsc5)cc4)nc32)cc1 | 4000 µg/mL | MTCC 227 | 0 mm
CCOC(=O)c1[nH]nc(-c2ccc(Cl)cc2)c1N | 0.002 µg/mL | ATCC 10231 | 17 mm
NC(=S)c1ccc(OC(=O)CNc2ccc(Cl)cc2)cc1 | 100 µg/mL | ATCC 10231 | 20 mm
NS(=O)(=O)c1ccc(-n2nc(-c3ccc(Cl)cc3)c3c(C(F)(F)F)cc(-c4ccc(F)cc4)nc32)cc1 | 4000 µg/mL | MTCC 227 | 0 mm
Cc1c(Cc2ccc(Cl)cc2)nc(SCCN2CCCC2)[nH]c1=O | 200 µg/disc | ATCC 10231 | 13 mm
COc1ccc(OC)c(C2CC(c3ccc(F)cc3)=NN2c2ccc(S(N)(=O)=O)cc2)c1 | 4 mg/mL | MTCC 227 | 0 mm
C#Cc1c(-c2ccc(Cl)cc2)c(C#N)c2nc(=O)c3c(-c4ccccc4)csc3n2c1N | 1000 µg/mL |  | 0 mm
Oc1cc2ccccc2cc1/C=N/NC(=S)N/N=C/c1cc2ccccc2cc1O | 2 mg/mL |  | 16 mm
CCc1c(Cc2ccc(OC)c(OC)c2)nc(SCCN2CCCC2)[nH]c1=O | 200 µg/disc | ATCC 10231 | 35 mm
Cc1ccc(-n2cc(-c3ccc([N+](=O)[O-])cc3)c(-c3ccnc4nncn34)n2)cc1 | 2.5 mg/mL |  | 7 mm
COc1cc(OC)cc(C2CC(c3ccc(OC)cc3O)=NN2c2ccc(S(N)(=O)=O)cc2)c1 | 4 mg/mL | MTCC 227 | 0 mm
CCOC(=O)c1[nH]nc(-c2ccc(Br)cc2)c1N | 0.002 µg/mL | ATCC 10231 | 16 mm
N#Cc1cc(C#N)c2[nH]c(=O)c3c(-c4ccc(Cl)cc4)csc3[n+]2c1N | 1000 µg/mL |  | 0 mm
COc1ccc(C2=CC(c3cc(OC)c(OC)c(OC)c3)N3C(=O)CSC3=N2)cc1OC | 1 mg/mL | DSM 70014 | 14 mm
CC(=O)N1CCN(c2ccc(OC[C@H]3CO[C@](Cn4ccnc4)(c4ccc(Cl)cc4Cl)O3)cc2)CC1 | 20 mg/mL | C4 | 20 mm
N#CNc1ncc(/C=C2\SC(=O)NC2=O)c(-c2ccccc2O)n1 | 100 µg/mL | fungal strain | 8 mm
CCN1C(=S)N(CN2CCN(c3ccccc3OC)CC2)NC1C12CC3CC(CC(C3)C1)C2 | 200 µg/disc | IFO 0583 | <10 mm
COc1ccc(C2c3ccc4ccccc4c3Oc3nc(-c4cc5ccccc5oc4=O)[nH]c(=O)c32)cc1 | 150 µg/mL |  | 16 mm
COc1ccc(C2=CC(c3cc(OC)c(OC)c(OC)c3)NC(=O)N2)cc1OC | 1 mg/mL | DSM 70014 | 15 mm
CC(=NNC(=O)c1snnc1C(F)(F)F)c1ccccn1 | 150 µg/mL | MTCC 227 | 0 mm
C/C=C/N1C(=S)N(CN2CCN(C(=O)OCC)CC2)NC1C12CC3CC(CC(C3)C1)C2 | 200 µg/disc | IFO 0583 | <10 mm
NS(=O)(=O)c1ccc(-n2nc(-c3ccc(Cl)cc3)c3c(C(F)(F)F)cc(-c4ccc(Cl)cc4)nc32)cc1 | 4000 µg/mL | MTCC 227 | 0 mm
O=c1[nH]cnc2c(-c3ccccc3)n[nH]c12 | 0.002 µg/mL | ATCC 10231 | 17 mm
CCc1c(Cc2ccc(OC)c(OC)c2)nc(SCCN(CC)CC)[nH]c1=O | 200 µg/disc | ATCC 10231 | 21 mm
O=c1[nH]c(-c2cc3ccccc3oc2=O)nc2c1C(c1ccccc1)c1ccc3ccccc3c1O2 | 150 µg/mL |  | 18 mm
COc1ccc(C(=O)/C=C/c2cc(OC)c(OC)c(OC)c2)cc1OC | 1 mg/mL | DSM 70014 | 14 mm
Cc1ccc(-c2cc(C(F)(F)F)c3c(-c4ccc(Cl)cc4)nn(-c4ccc(S(N)(=O)=O)cc4)c3n2)cc1 | 4000 µg/mL | MTCC 227 | 0 mm
C=CC(C)(C)c1cc(C2CC(=O)c3c(cc(O)c(CC=C(C)C)c3O)O2)c(O)cc1O | 2 mg/mL | hemoculture isolate 15564 | 12 mm
Cc1ccc(-n2cc(-c3ccc([N+](=O)[O-])cc3)c(C(=O)/C=C/N(C)C)n2)cc1 | 5 mg/mL |  | 7 mm
C#Cc1c(-c2ccc([N+](=O)[O-])cc2)c(C#N)c2nc(=O)c3c(-c4ccccc4)csc3n2c1N | 1000 µg/mL |  | 0 mm
O=C(COc1ccc(-c2nc(-c3ccccc3)c(-c3ccccc3)s2)cc1)CN1CCCC1 | 100 µg/mL | ATCC 10231 | 26 mm
COc1ccc(C2=NN(c3ccc(S(N)(=O)=O)cc3)C(c3ccc(OC)cc3OC)C2)c(O)c1 | 4 mg/mL | MTCC 227 | 0 mm
O=C1NC(=O)/C(=C/C2=C(c3ccccc3O)Sc3nnc(-c4ccccc4)n3N=C2)S1 | 100 µg/mL | fungal strain | 9 mm
O=C(NN=Cc1ccccc1)c1snnc1C(F)(F)F | 100 µg/mL | MTCC 227 | 10 mm
N#Cc1c(-c2ccccc2)csc1NC(=O)C1C=CC(c2cccs2)=NC1=O | 1000 µg/mL |  | 0 mm
NC(=S)c1ccc(OC(=O)CN2CCCCC2)cc1 | 100 µg/mL | ATCC 10231 | 22 mm
COC(=O)N[C@H](C(=O)NN(CC[C@@]1(Cc2ccccc2)C(=O)N(C2c3ccccc3C[C@H]2O)C[C@@H]1O)Cc1ccc(-c2ccccn2)cc1)C(C)(C)C | 10 mg/mL |  | 12.8 mm
CCc1c(Cc2ccc(OC)c(OC)c2)nc(SCCN2CCCCC2)[nH]c1=O | 200 µg/disc | ATCC 10231 | 20 mm
O=c1[nH]c(-c2cc3ccccc3oc2=O)nc2c1C(c1ccc(O)cc1)c1ccc3ccccc3c1O2 | 100 µg/mL |  | 12 mm
O=C1NC(=O)/C(=C/c2cc3c(=O)n(-c4ccccc4)nc-3oc2-c2ccccc2O)S1 | 100 µg/mL | fungal strain | 8 mm
C/C=C/N1C(=S)N(CN2CCN(c3ccccc3OC)CC2)NC1C12CC3CC(CC(C3)C1)C2 | 200 µg/disc | IFO 0583 | <10 mm
CCc1c(Cc2ccc(OC)c(OC)c2)[nH]c(=S)[nH]c1=O | 200 µg/disc | ATCC 10231 | <10 mm
C[C@H]1[C@H](O)[C@@H](C)/C=C/C=C/C=C/C=C/C=C/C=C/C=C/[C@H](O[C@@H]2O[C@H](C)[C@@H](O)[C@H](N)[C@@H]2O)C[C@@H]2O[C@](O)(C[C@@H](O)C[C@@H](O)CC[C@H](O)[C@@H](O)C[C@@H](O)CC(=O)O[C@H]1C)C[C@H](O)[C@H]2C(=O)O | 100 µg/mL |  | 23.5 mm
COc1cc(C2CC(c3ccc4c(c3)OCO4)=NN2C=O)cc(OC)c1OC | 1 mg/mL | DSM 70014 | 14 mm
C1=N\n2c(nnc2-c2cccnc2)SCCCCSc2nnc(-c3cccnc3)n2/N=C\c2ccccc2OCCCCOc2ccccc2/1 | 2.5 mg/mL | RCMB 005003 | 1–5 mm
CCOC(=O)c1ccc(-c2nn(-c3ccccc3)cc2-c2ccc([N+](=O)[O-])cc2)nc1C | 2.5 mg/mL |  | 9 mm
O=C1NC(=O)/C(=C/c2cnn(-c3ccccc3)c2-c2ccccc2O)S1 | 100 µg/mL | fungal strain | 10 mm
c1ccc(-c2nc(-c3ccc(N4CCCCC4)cc3)sc2-c2ccccc2)cc1 | 100 µg/mL | ATCC 10231 | 20 mm
COc1ccc(-c2cc(C(F)(F)F)c3c(-c4ccc(C)cc4)nn(-c4ccc(S(N)(=O)=O)cc4)c3n2)cc1 | 4000 µg/mL | MTCC 227 | 0 mm
O=c1[nH][nH]c(-c2ccccc2)c(N=Nc2ccccc2)c1=O | 0.002 µg/mL | ATCC 10231 | 17.5 mm
COc1ccc(/C=c2\sc3n(c2=O)C(c2cc(OC)c(OC)c(OC)c2)C=C(c2ccc(OC)c(OC)c2)N=3)cc1OC | 1 mg/mL | DSM 70014 | 17 mm
COC(=O)N[C@H](C(=O)NN(CC[C@@]1(Cc2ccccc2)C(=O)N(C2c3ccccc3C[C@H]2O)C[C@@H]1O)Cc1ccc(-c2ccncc2)cc1)C(C)(C)C | 10 mg/mL |  | 12.8 mm
O=C(NN=C1CCCCCC1)c1snnc1C(F)(F)F | 100 µg/mL | MTCC 227 | 0 mm